Among the test systems are CC(=O)OCC(=O)O; CC(=O)O[C@H](CO)C(=O)O; CC[C@@H](OC(C)=O)C(=O)O.
What all share (assay): purified protein
Holding throughout (details): 30.0 °C

The subject of data set [1] is CC(=O)O[C@@H](C(=O)O)c1ccccc1.

The term Km denotes the concentration of substrate that gives half-maximal velocity. A word on the kcat/Km: it is the turnover number divided by the Michaelis constant.

For the substance Oant2987 (Brucella anthropi ATCC 49188), the Km in the data set with CC(=O)OCC(=O)O was 1100 ± 200 µM; in data set [1], 700 ± 100 µM; in the data set on CC(=O)O[C@H](CO)C(=O)O it was 2100 ± 500 µM; in the data set with CC[C@@H](OC(C)=O)C(=O)O, 1200 ± 100 µM. Moreover, the catalytic efficiency (kcat/Km) in the data set on CC(=O)OCC(=O)O worked out at 4200 M⁻¹ s⁻¹; in data set [1] it was 180000 M⁻¹ s⁻¹; in the data set on CC(=O)O[C@H](CO)C(=O)O, 300 M⁻¹ s⁻¹.

Source of the values: PMC3542638.
